Data taken from patent publication EP1370663B1, “MICROBIOLOGICAL METHOD FOR PRODUCING L-CARNITINE” (priority 2001, dated 2002).

Legend:
HK1331b (DSM 3225) = experiment: Conversion of butyrobetaine esters to butyrobetaine and L-carnitine by strain HK1331b; assay type: cell-based, Agrobacterium/Rhizobium HK1331b (DSM 3225); conditions: in 144 h, 0,90% (w/v) ester
HK1349 (DSM 3944) = experiment: Conversion of butyrobetaine esters to butyrobetaine and L-carnitine by strain HK1349 (HPLC of supernatant); assay type: cell-based, Agrobacterium/Rhizobium HK1349 (DSM 3944); conditions: for Reaktionsgemisch Summe: HK1349, 74 h, sum = BBMe or BBEt + Butyrobetain + L-Carnitin; for Reaktionsgemisch L-Carnitin: HK1349, L-carnitine formed after 74 h; for Reaktionsgemisch L-Carnitin / Reaktionsgemisch BB: educt 0,75% (w/v); for Reaktionsgemisch BB: HK1349, butyrobetaine formed after 74 h; for Umsetzung des Butyrobetain-esters: HK1349, in 74 h, 0,75% (w/v) ester

| SMILES | Umsetzung des Butyrobetain-esters unter Bildung von Butyrobetain und L-Carnitin (HK1331b (DSM 3225)) | Reaktionsgemisch Summe (HK1349 (DSM 3944)) | Reaktionsgemisch L-Carnitin (HK1349 (DSM 3944); 30°C) | Reaktionsgemisch BB (HK1349 (DSM 3944); 30°C) | Umsetzung des Butyrobetain-esters (HK1349 (DSM 3944)) | Reaktionsgemisch BBEt (HK1349 (DSM 3944); HK1349, unconverted ester after 74 h, educt 43,1 mmol/L (0,75% w/v), 30°C) | Reaktionsgemisch BBMe (HK1349 (DSM 3944); HK1349, unconverted ester after 74 h, educt 46,9 mmol/L (0,75% w/v), 30°C) |
| --- | --- | --- | --- | --- | --- | --- | --- |
| CCOC(=O)CCC[N+](C)(C)C [BBEt, Butyrobetain-ethylester] | ca. 50% | 42 mmol/L | 10 mmol | 6 mmol/L | ca. 40% | 26 mmol/L | – |
| COC(=O)CCC[N+](C)(C)C [BBMe, Butyrobetain-methylester] | ca. 50% | 49 mmol/L | 9 mmol | 13 mmol/L | ca. 40% | – | 27 mmol/L |
